Compound potency records, mixed from different reports. Data source: NIAID ChemDB in PubChem.

Shared fields: tests in culture; organism: Varicella zoster virus; read by: plaque count; endpoint: EC50

Neighbouring rows are from separate reports. ECn is the concentration giving n% inhibition of infection, replication or growth. An empty or dashed field is not shown.

compound | strain or isolate | cells | result
Nc1nc2c(ncn2CCC(CO)CO)c(=O)[nH]1 | ELLEN | MRC-5 | 2.4 µg/mL
Cc1cn([C@H]2C[C@H](O)[C@@H](CO)O2)c(=S)nc1N | HOSEN (TK+) | MRC-5 | 36.1 µM
Cc1c(Br)cc(Br)c2ncc(CSCc3ccc(F)cc3)n12 | YS/R (TK-) | HEL | 4.8 µg/mL
CC#Cc1cn([C@@H]2O[C@H](COP(=O)(O)Oc3ccc(OC)cc3)[C@@H](O)[C@@H]2O)c(=O)[nH]c1=O | G-31 | MRC-5 | >100 µM
Cc1cn([C@@H]2O[C@H](CO[Si](C)(C)C(C)(C)C)C3(O[C@H]3C(=O)NO)[C@H]2O[Si](C)(C)C(C)(C)C)c(=O)[nH]c1=O |  | MRC-5 | >5 µM
CCCCCCCCCCCCc1cc2cn([C@H]3C[C@H](O)[C@@H](CO)O3)c(=O)nc2[nH]1 | YS | HEL | 14 µM
C=Cc1cn([C@@H]2O[C@H](CO)[C@@H](O)[C@@H]2O)c(=S)nc1N | HOSEN (TK+) | MRC-5 | 253.8 µM
CCOP(=O)(O)COCCn1cnc2c(=O)[nH]c(N)nc21 | OKA (TK+) | HEL | 0.008 µg/mL
CC#Cc1cn([C@@H]2O[C@H](COP(=O)(N[C@@H](C)C(=O)OC)Oc3ccccc3)[C@@H](O)[C@@H]2O)c(=O)[nH]c1=O | G-31 | MRC-5 | >100 µM
O=C(NCc1ccc(Cl)cc1)c1c[nH]c2c(F)cccc2c1=O | RAI |  | 0.5 µM
Cc1cn([C@H]2C[C@@H](N=[N+]=[N-])[C@@H](CO)O2)c(=O)[nH]c1=O | OKA |  | >250 µM
Nc1nc2c(ncn2CCC(CO)CO)c(=O)[nH]1 | YS (TK+) | HEL | 3.3 µM
Cc1c(Br)cc(Br)c2ncc(CSCc3ccccc3F)n12 | 07/1 (TK-) | HEL | >5 µg/mL
CC(C)C[C@H](NC(=O)n1nnc2ccccc21)C(=O)NCC1CCCCC1 | 07/1 (TK-) | HEL | >16 µg/mL
CC#Cc1cn([C@@H]2O[C@H](COP(=O)(OCC(Cl)(Cl)Cl)Oc3ccccc3)[C@@H](O)[C@@H]2O)c(=O)[nH]c1=O | G-31 | MRC-5 | >100 µM
CC#Cc1cn([C@@H]2O[C@H](CO)[C@@H](O)[C@@H]2O)c(=O)[nH]c1=O | OKA (TK+) | HEL | 0.18 µM
CC(C)C1NC(=O)N(C2CCCC2)C1=O | OKA (TK+) | HEL | 84 µg/mL
CC(C)(C)[Si](C)(C)OC[C@H]1O[C@@H](n2ccc(=O)[nH]c2=O)[C@H](O[Si](C)(C)C(C)(C)C)[C@@]12O[C@H]2C(=O)NO |  | MRC-5 | 13 µM
O=c1[nH]c(=O)n([C@H]2C[C@H](O)[C@@H](CO)O2)cc1-c1ccc(Br)s1 | YS (TK+) | HEL | 0.108 µM
CCCCCCOCCCc1cc2cn([C@H]3C[C@H](O)[C@@H](CO)O3)c(=O)nc2o1 | YS/R (TK-) | HEL | >50 µM
NC1=NCCN1CC(=O)O |  | MRC-5 | 4000 µM
CCc1cn([C@H]2C[C@H](O)[C@@H](CO)O2)c(=S)nc1N | CAQU (TK+) | MRC-5 | >288.6 µM
Nc1nc(N)c2ncn(CCOCP(=O)(O)O)c2n1 | YS (TK+) | HEL | 4.4 µM
Nc1nc2c(ncn2/C=C2/CC2(CO)CO)c(=O)[nH]1 | ELLEN | HFF | >380 µM
NC1=NC2C(C=CN2CC(CO)CCO)C(=O)N1 | MOLLY | MRC-5 | 0.62 µM
Nc1nc(=O)n([C@H]2C[C@H](O)[C@@H](CO)O2)cc1/C=C\Cl | OKA | HEL | 0.2 µg/mL
Cc1ccc(CSCc2cnc3c(Br)cc(Br)c(C)n23)cc1 | 07/1 (TK-) | HEL | >20 µg/mL
C=C1[C@H](CO)[C@@H](O)C[C@@H]1n1cnc2c(=O)[nH]c(N)nc21 |  | WI-38 | 15 µM
CCCCCCCCCCc1cc2cn([C@H]3C[C@H](O)[C@@H](CO)O3)c(=O)nc2n1CC | 07/1 (TK-) | HEL | >5 µM
CC#Cc1cn([C@@H]2O[C@H](COP(=O)(O)Oc3ccc(F)cc3)[C@@H](O)[C@@H]2O)c(=O)[nH]c1=O | G-31 | MRC-5 | >100 µM
CCCCCCCCCCc1cc2cn([C@H]3C[C@H](O)[C@@H](CO)O3)c(=O)nc2n1C | 07/1 (TK-) | HEL | >50 µM
CCCc1cn([C@H]2C[C@H](O)[C@@H](CO)O2)c(=S)[nH]c1=O | HOSEN (TK+) | MRC-5 | 2.2 µM
Nc1ncnc2c1ncn2[C@H]1C[C@]12C[C@@H]2CO |  | HFF | >86.5 µM
Nc1ccn(C[C@@H](CO)OCP(=O)(O)O)c(=O)n1 | YS/R (TK-) | HEL | 0.25 µg/mL
Nc1ncnc2c1ncn2[C@H]1C[C@@]12C[C@H]2CO |  | HFF | 242 µM
Cc1c(Br)cc(Br)c2ncc(CSCc3ccccc3)n12 | 07/1 (TK-) | HEL | >20 µg/mL
Nc1nccc2c1ncn2C[C@@H](CO)OCP(=O)(O)O | YS (TK+) | HEL | 0.09 µg/mL
Nc1nc2c(ncn2C[C@]2(CO)C[C@H]2CO)c(=O)[nH]1 | 6 isolates | MRC-5 | 0.035 µg/mL
O=c1[nH]c(=O)n([C@H]2C[C@H](O)[C@@H](CO)O2)cc1-c1cc(Br)no1 | YS | HEL | 0.24 µg/mL
Cc1c(Br)cc(Br)c2ncc(CSCCCc3ccccc3)n12 | 07/1 (TK-) | HEL | 8.3 µg/mL
O=c1[nH]c(=O)n([C@@H]2O[C@H](CO)[C@@H](O)[C@@H]2O)cc1/C=C/Br | 13 isolates | HEL | 0.00022 µM
Cc1c(Br)cc(Br)c2ncc(CSCc3cccc(C(F)(F)F)c3)n12 | OKA (TK+) | HEL | >5 µg/mL
NC(=S)c1cn(COCCO)c2ncnc(N)c12 | ELLEN | HFF | 46 µM
CC#Cc1cn([C@@H]2O[C@H](COP(=O)(O)OCCCCCCCCCCCCCCCC)[C@@H](O)[C@@H]2O)c(=O)[nH]c1=O | G-31 | MRC-5 | 100 µM
CCCc1ccc(OCCCc2cc3cn([C@H]4C[C@H](O)[C@@H](CO)O4)c(=O)nc3o2)cc1 | (TK-)/YS/R | HEL | >50 µM
C=Cc1cn([C@H]2C[C@H](O)[C@@H](CO)O2)c(=S)[nH]c1=O | HOSEN (TK+) | MRC-5 | 124.8 µM
Nc1ccn(C[C@@H](CO)OCP(=O)(O)O)c(=O)n1 | OKA (TK+) | HEL | 0.38 µM
Nc1nc(=S)n([C@@H]2O[C@H](CO)[C@@H](O)[C@@H]2O)cc1/C=C/c1ccccc1 | Kanno-Kohmura (TK-) | MRC-5 | >258.7 µM
CCOC(=O)CC1(O)[C@@H](CO[Si](C)(C)C(C)(C)C)O[C@@H](n2ccc(=O)[nH]c2=O)[C@@H]1O[Si](C)(C)C(C)(C)C |  | MRC-5 | >5 µM
CC(C)C[C@H](NC(=O)n1nnc2ccccc21)C(=O)NC(c1ccccc1)c1ccccc1 | (TK+)/OKA | HEL | >0.13 µg/mL
Nc1nc2ncn(CCOCP(=O)(O)O)c2c(=O)[nH]1 | YS (TK+) | HEL | 0.03 µg/mL
O=c1nc2oc(CCCC3OCCO3)cc2cn1[C@H]1C[C@H](O)[C@@H](CO)O1 | YS/R (TK-) | HEL | >200 µM
OC[C@H]1O[C@@H](c2cc(C(O)C(I)I)c(F)cc2F)C[C@@H]1O | YS/R (TK-) | HEL | >50 µg/mL
CCCCCCCCc1cc2cn([C@H]3C[C@H](O)[C@@H](CO)O3)c(=O)nc2[nH]1 | YS/R (TK-) | HEL | >20 µM
Nc1nc(=S)n([C@@H]2O[C@H](CO)[C@@H](O)[C@@H]2O)cc1CO | CAQU (TK+) | MRC-5 | 131.8 µM
CCCCCCCCCCc1cc2cn([C@H]3C[C@H](O)[C@@H](CO)O3)c(=O)nc2n1CCC | YS/R (TK-) | HEL | >5 µM
O=c1[nH]c(=S)n([C@@H]2O[C@H](CO)[C@@H](O)[C@@H]2O)cc1/C=C/c1ccccc1 | Kanno-Kohmura (TK-) | MRC-5 | >258.7 µM
Nc1nc2c(ncn2CCOCP(=O)(O)O)c(=O)[nH]1 | YS/R (TK-) | HEL | 0.001 µg/mL
CC(C)(C)[Si](C)(C)OC[C@H]1O[C@@H](n2ccc(=O)[nH]c2=O)[C@H](O[Si](C)(C)C(C)(C)C)[C@@]12O[C@H]2C(N)=O |  | MRC-5 | >8 µM
CCCOCCOCCCc1cc2cn([C@H]3C[C@H](O)[C@@H](CO)O3)c(=O)nc2o1 | YS/R (TK-) | HEL | >200 µM
CC(C)(C)[Si](C)(C)OC[C@H]1O[C@@H](n2ccc(=O)[nH]c2=O)[C@H](O[Si](C)(C)C(C)(C)C)C1(O)[C@H](N=[N+]=[N-])C(N)=O |  | MRC-5 | >5 µM
O=C(O)P(=O)(O)O | YS (TK+) | HEL | 42.3 µM
Nc1nc(=O)n([C@H]2C[C@H](O)[C@@H](CO)O2)cc1/C=C/Cl | 7/01 (TK-) | HEL | >40 µg/mL
Nc1nc(Cl)c2ncn(/C=C3/C[C@H]3CO)c2n1 |  | HFF | >518 µM

5 of the rows above, restated:

| compound | strain or isolate | cells | result |
|---|---|---|---|
| O=C(NCc1ccc(Cl)cc1)c1c[nH]c2c(F)cccc2c1=O | RAI |  | 0.5 µM |
| Nc1ccn(C[C@@H](CO)OCP(=O)(O)O)c(=O)n1 | YS/R (TK-) | HEL | 0.25 µg/mL |
| Nc1ncnc2c1ncn2[C@H]1C[C@@]12C[C@H]2CO |  | HFF | 242 µM |
| Nc1nc(=O)n([C@H]2C[C@H](O)[C@@H](CO)O2)cc1/C=C/Cl | 7/01 (TK-) | HEL | >40 µg/mL |
| Cc1c(Br)cc(Br)c2ncc(CSCc3cccc(C(F)(F)F)c3)n12 | OKA (TK+) | HEL | >5 µg/mL |